Anti-infective test results gathered from many reports (values: NIAID ChemDB through PubChem).

Common to all: growth or infection tests; agent: Mycobacterium tuberculosis

MIC bound: limit read from a one-dose screen. A number after MIC or MFC names an inhibition level or a share of isolates. ECn: concentration that inhibits the pathogen or its effect by n%. An empty or dashed field is not shown. Two numbers with a dash give a range or band. Percent inhibition refers to the dose given; in toxicity tests it is the harm to the cells. Lines come from different laboratories, so protocols vary.

compound,measure,strain or isolate,dose,cells,read by,result
Cc1ccc(-c2cs/c(=N\NC(=O)COc3cnccn3)n2CC(C)C)cc1,MIC,H37Rv,,,,8.2 µg/mL
Cc1ccc2nc(SCC(=O)N/N=C/c3cc(Br)ccc3O)n(-c3ccccc3)c(=O)c2c1,MIC,H37Rv,,,,>6.25 µg/mL
CCOC(=O)C1CCCC12Nc1cccc3cccc(c13)N2,inhibition,H37Rv,12.8 µg/mL,,BACTEC,18%
C=C1C(=O)O[C@H]2[C@H]1CCC1(C)O[C@@H]1CC[C@@]1(C)O[C@@H]21,MIC,,,,,128 µg/mL
CSc1ccc(-c2nn(-c3ccccc3)cc2C2CC(c3cc(Br)c(O)c(Br)c3)=NN2C(C)=O)cc1,inhibition,H37Rv,6.25 µg/mL,,BACTEC,11%
Cc1c(N)nc([C@H](CC(N)=O)NC[C@H](N)C(N)=O)nc1C(=O)N[C@H](C(=O)N[C@H](C)[C@@H](O)[C@H](C)C(=O)N[C@H](C(=O)NCCc1nc(-c2nc(C(=O)NCCC[S+](C)C)cs2)cs1)[C@@H](C)O)C(O[C@@H]1O[C@@H](CO)[C@@H](O)[C@H](O)[C@@H]1O[C@H]1O[C@H](CO)[C@@H](O)[C@H](OC(N)=O)[C@@H]1O)c1cnc[nH]1,MIC,H37Ra,,,,1.56 µM
C=C1C(=O)OC2/C=C(/C=O)C3OC3C3OC3(C)CC(OC(=O)/C(=C/C)CO)C12,inhibition,H37Rv,12.5 µg/mL,,BACTEC,20%
C=C1CC[C@@H](O)[C@]2(C)CC[C@H]3C(=C)C(=O)O[C@@H]3[C@@H]12,MIC,,,,,64 µg/mL
COc1cc(/C=N/NC(=O)CSc2nc3ccc(C)cc3c(=O)n2-c2ccccc2)ccc1O,MIC,H37Rv,,,,>6.25 µg/mL
CO[C@H]1/C=C/O[C@@]2(C)Oc3c(C)c(O)c4c(=O)c(c5oc6cc(N7CCN(CC(C)C)CC7)cc(=O)c6nc5c4c3=C2O)NC(=O)/C(C)=C\C=C\[C@H](C)[C@H](O)[C@@H](C)[C@@H](O)[C@@H](C)[C@H](OC(C)=O)[C@@H]1C,MIC,Kurono,,,,0.002 µg/mL
OC(c1cc(-c2ccccc2)nc2c1ccc1ccccc12)C1CCCCN1,MIC,H37Ra,,,,12.5 µM
O=C(CCCC(=O)NNC(=O)Nc1cccc2ccccc12)NNC(=O)Nc1cccc2ccccc12,MIC,H37Rv,,,BACTEC,≥12.5 µg/mL
C=C1C(=O)O[C@H]2[C@H]1CC/C(C)=C/CC[C@@]1(C)O[C@@H]21,MIC,,,,,16 µg/mL
CO[C@H]1/C=C/O[C@@]2(C)Oc3c(C)c(O)c4c(O)c(c(CN5CCN(C)CC5)c(O)c4c3C2=O)NC(=O)/C(C)=C\C=C\[C@H](C)[C@H](O)[C@@H](C)[C@@H](O)[C@@H](C)[C@H](OC(C)=O)[C@@H]1C,MIC,H37Ra,,,,6.25 µM
Cc1nn(C(=O)Cc2ccccc2)c2c1C(c1ccc(O)cc1)SC(N)=N2,MIC bound,H37Rv,,,BACTEC,>12.5 µg/mL
CC1=CC[C@@H](O)[C@]2(C)CC[C@@H]3[C@H](OC(=O)[C@H]3C)[C@@H]12,MIC,,,,,>128 µg/mL
CCN(CC)CCNc1ccc(COC(=O)NC)c2sc3ccccc3c(=O)c12,MIC,H37Rv,,VERO,BACTEC,6.25 µg/mL
Cc1ccc2nc(SCC(=O)N/N=C/c3ccc(Br)cc3)n(-c3ccccc3)c(=O)c2c1,MIC,H37Rv,,,,>6.25 µg/mL
Cc1ccc(Oc2cc3nc(C4CCCCC4)[nH]c3cc2NC(=O)c2ccc(F)cc2F)cc1,inhibition,H37Rv,1 µg/mL,,resazurin,44%
O=C(COc1cnccn1)N/N=c1\scc(-c2ccc(Cl)cc2)n1-c1ccc(Cl)cc1,MIC,H37Rv,,,,11.5 µg/mL
O=C(CC(=O)Nc1ccc(Cl)cc1)Nc1ccc(Cl)cc1,MIC,,,,,4 µM
CCCCCCCCC(CC)OC(=O)c1cnc(Cl)cn1,MIC,ATCC35801,,,,1 µg/mL
CSc1ccc(-c2nn(-c3ccccc3)cc2C2CC(c3cccc([N+](=O)[O-])c3)=NN2)cc1,inhibition,H37Rv,6.25 µg/mL,,BACTEC,25%
Cc1ccc(-c2cc(-c3ccc(Cl)cc3)nc(/N=C3\C(=O)N(CN(C)C)c4ccc(Cl)cc43)n2)cc1,inhibition,H37Rv,6.25 µg/mL,,BACTEC,87%
COc1ccc(/C=C2/C(=O)N(/C=C3\C(=O)Oc4ccccc4C3=O)C(=NC(C)=O)N2C)cc1OC,inhibition,H37Rv,12.5 µg/mL,,BACTEC,0%
CC[C@@H](CO)NCCN[C@@H](CC)CO,MIC,17 strains,,,,1.9–7.5 µg/mL
O=C(Nc1ccccc1)C(=O)Nc1ccccc1,MIC,,,,,>1000 µM
Cc1ccc2nc(SCC(=O)N/N=C/c3ccc(Cl)cc3)n(-c3ccccc3)c(=O)c2c1,MIC,H37Rv,,,,>6.25 µg/mL
Cc1ccc(-c2cc(-c3ccc(Cl)cc3)nc(/N=C3\C(=O)N(CN(C)C)c4ccccc43)n2)cc1,inhibition,H37Rv,6.25 µg/mL,,BACTEC,90%
CN[C@@H]1[C@H](O[C@H]2[C@H](O[C@H]3[C@H](O)[C@@H](O)[C@H](N=C(N)N)[C@@H](O)[C@@H]3N=C(N)N)O[C@@H](C)[C@]2(O)C=O)O[C@@H](CO)[C@H](O)[C@H]1O,MIC,1 isolates,,,,<1 µg/mL
CCCCOc1ccc2nc(C)cc(NN)c2c1,MIC,H37Rv,,VERO,,6.25 µg/mL
O=c1oc2nc(-c3ccccc3)[nH]c(=O)c2c(O)c1Cc1ccccc1,inhibition,H37Rv,12.5 µg/mL,,BACTEC,28%
C=C1CC[C@@H](O)[C@]2(C)CC[C@@H](C(=C)CO)[C@H](O)[C@@H]12,MIC,,,,,>128 µg/mL
COc1ccc(OC)c(N=Nc2c(O)c3ccccc3[nH]c2=O)c1,inhibition,H37Rv,12.5 µg/mL,,BACTEC,5%
Cc1cc(C)c2c(OCCCN3CCN(c4cccc(Cl)c4)CC3)nsc2n1,EC50,H37Rv,,,BACTEC,>12.5 µg/mL
CC(Cc1ccccc1)N(C)Cc1ccc(-c2ccc(Cl)cc2)o1,MIC,H37Rv,,VERO,BACTEC,12.5 µg/mL
Cc1cc(N)c2ccccc2[n+]1CCCCCCCCCC[n+]1c(C)cc(N)c2ccccc21,MIC,H37Ra,,,,6.25 µM
Cc1cc(C)c2c(OCCCCN3CCN(c4ccccc4)CC3)nsc2n1,inhibition,H37Rv,12.5 µg/mL,,BACTEC,2%
C=C1C(=O)O[C@@H]2/C=C(\C)CC[C@H]3OC3(C)CC[C@@H]12,MIC,,,,,64 µg/mL
CSc1ccc(C2=NNC(c3cn(-c4ccccc4)nc3-c3ccc(SC)cc3)C2)cc1,inhibition,H37Rv,6.25 µg/mL,,BACTEC,18%
Cc1ccc(NC(=O)CC(=O)Nc2ccc(C)c(Cl)c2)cc1Cl,MIC,,,,,12.3 µM
CC1=CCC[C@@]2(C)O[C@H]2[C@H]2OC(=O)[C@@H](C)[C@@H]2CC1,MIC,,,,,128 µg/mL
CSc1ccc(-c2nn(-c3ccccc3)cc2C2CC(c3cccc([N+](=O)[O-])c3)=NN2C(C)=O)cc1,inhibition,H37Rv,6.25 µg/mL,,BACTEC,10%
OC[C@H]1O[C@@H](n2cnc3cc(Cl)c(Cl)cc32)C[C@@H]1O,MIC bound,,,,resazurin,>6.25 µg/mL
CCOc1ccc2c(N/N=C/c3ccc(OC)c4ccccc34)ccnc2c1,inhibition,H37Rv,12.5 µg/mL,VERO,,100%
S=C(S)Nc1ccc(Cl)cc1,MIC,RMP-R,,,,6.3 µg/mL
CSc1ccc(-c2nn(-c3ccccc3)cc2C2CC(c3ccc(Cl)cc3)=NN2)cc1,inhibition,H37Rv,6.25 µg/mL,,BACTEC,36%
ClCCN1CCN(CCCN2c3ccccc3Sc3ccc(Cl)cc32)CC1,MIC,H37Rv,,,,3.96 µg/mL
Cc1ccc(-c2cc(-c3ccc(Cl)cc3)nc(/N=C3\C(=O)N(CN4CCCCC4)c4ccccc43)n2)cc1,inhibition,H37Rv,6.25 µg/mL,,BACTEC,89%
C=C1C(=O)O[C@@H]2[C@H]3C(C)=CC[C@@H](O)[C@]3(C)CC[C@@H]12,MIC,,,,,64 µg/mL
Cc1ccc(Oc2cc3nc(C4CCCCC4)[nH]c3cc2NC(=O)c2ccc(C)cc2)cc1,inhibition,H37Rv,1 µg/mL,,resazurin,36%
CC1=C(N)C(=O)C2=C(C1=O)N1C[C@H]3[C@H](N3C)[C@]1(O)[C@@H]2COC(N)=O,MIC,INH-r,,,,0.8 µg/mL
COc1ccccc1N1CCN(CCCCN2C(=O)c3c(C)cc(C)nc3S2(=O)=O)CC1,EC50,H37Rv,,,BACTEC,>12.5 µg/mL
C[C@]1(COc2ccc(OC(F)(F)F)cc2)Cn2cc([N+](=O)[O-])nc2O1,MIC,H37Rv,,,,0.39 µg/mL
O=C(O)CNC(=O)C1NC(C(F)(F)F)(C(F)(F)F)OC1(C(F)(F)F)C(F)(F)F,MIC bound,H37Rv,,,BACTEC,>12.5 µg/mL
COC(=O)/C1=C/c2c([nH]c3ccc(I)cc23)/C(C(=O)OC)=C\c2c1[nH]c1ccc(I)cc21,EC50,H37Rv,,,resazurin / absorbance,3.89 µM
Cc1cc2nc(Nc3nc(C)c(C)c(=O)[nH]3)[nH]c2cc1C,inhibition,H37Rv,6.25 µg/mL,,resazurin,-11%
COC(=O)/C1=C/c2c([nH]c3ccc(Br)cc23)/C(C(=O)OC)=C\c2c1[nH]c1ccc(Br)cc21,EC50,H37Rv,,,resazurin / absorbance,1.98 µM
CCn1cc(C(=O)O)c(=O)c2cc(F)c(N3CCNC(C)C3)c(F)c21,MIC,H37Rv,,,,4 µg/mL
COCCCNC(=O)c1nnn2c1nc(N)c1cc(Cl)ccc12,MIC bound,H37Rv,,,BACTEC,>12.5 µg/mL
CCCCc1ccc2nc(C)cc(N/N=C/c3ccc4c(c3)OCO4)c2c1,inhibition,H37Rv,12.5 µg/mL,VERO,,100%
CC1=C(C)C(=O)O[C@H]([C@](C)(O)[C@]2(O)CC[C@@]3(O)[C@@H]4C[C@H]5O[C@]56CC=CC(=O)[C@]6(C)[C@H]4CC[C@]23C)C1,MIC bound,H37Rv,,,BACTEC,>12.5 µg/mL
Cc1cc(C)c2c(=O)n(CC(=O)N3CCN(c4ccccc4)CC3)sc2n1,EC50,H37Rv,,,BACTEC,<12.5 µg/mL
O=C(COc1cnccn1)N/N=c1\scc(-c2ccc(O)cc2)n1-c1ccc(Cl)cc1Cl,MIC,H37Rv,,,,21 µg/mL
COc1ccccc1N1CCN(CCCCOc2nsc3nc(C)cc(C)c23)CC1,EC50,H37Rv,,,BACTEC,>12.5 µg/mL
CCCCCCCC(OC(=O)c1cnc(Cl)cn1)C(C)(C)C,MIC,ATCC 35828,,,,8 µg/mL
CC1CCC2(O)C3(C)CC4(O)OC2(C1O)C1(O)C3(O)C(OC(=O)c2ccc[nH]2)C(O)(C(C)C)C41C,MIC,H37Rv,,,BACTEC,≥12.8 µg/mL
CCOc1ccc(-n2c(-c3ccc(Cl)cc3)cs/c2=N\NC(=O)COc2cnccn2)cc1,MIC,H37Rv,,,,8.7 µg/mL
CCOc1cc(/C=N/NC(=O)CSc2nc3ccc(C)cc3c(=O)n2-c2ccccc2)ccc1O,MIC,H37Rv,,,,>6.25 µg/mL
CC1(C)OCC([C@H]2O[C@@H]3OC(C)(C)O[C@@H]3/C2=N/NC(=O)c2cc3cc(OCc4ccccc4)ccc3[nH]2)O1,inhibition,H37Rv,12.5 µg/mL,,BACTEC,99%
CSc1ccc(-c2nn(-c3ccccc3)cc2C2CC(c3ccc(O)cc3)=NN2)cc1,inhibition,H37Rv,6.25 µg/mL,,BACTEC,42%
CCCCCC(CC)OC(=O)c1cnc(Cl)cn1,MIC,ATCC35801,,,,0.25 µg/mL
Cc1ccc2nc(SCC(=O)N/N=C/c3ccc(Cl)c(Cl)c3)n(-c3ccccc3)c(=O)c2c1,MIC,H37Rv,,,,>6.25 µg/mL
Cc1ccc(-c2cc(-c3ccc(Cl)cc3)nc(/N=C3\C(=O)N(CN4CCCCC4)c4ccc(Br)cc43)n2)cc1,inhibition,H37Rv,6.25 µg/mL,,BACTEC,88%
C=C(C)C1CC=C(C)/C(=N/NC(=O)c2cccnc2)C1,MIC,TAC-R,,,,>12.5 µg/mL
O=C(COc1cnccn1)NNC(=S)Nc1ccc(Cl)cc1[N+](=O)[O-],MIC,H37Rv,,,,52 µg/mL
O=C(CC(=O)Nc1ccccc1)Nc1ccccc1,MIC,,,,,37 µM
COC1CC(O[C@H]2CC[C@@]3(C)[C@H](CC[C@@]45CC[C@H](C6=CC(=O)OC6)[C@@](C)(CC[C@@H]43)C5=O)C2)OC(C)C1O,MIC,H37Rv,,,BACTEC,≥12.5 µg/mL
C[C@@H]1CN(c2c(F)c(N)c3c(=O)c(C(=O)O)cn(C4CC4)c3c2F)C[C@H](C)N1,MIC50,,,,,0.2 µg/mL
COc1ccccc1N1CCN(Cn2sc3nc(C)cc(C)c3c2=O)CC1,inhibition,H37Rv,12.5 µg/mL,,BACTEC,100%